# Measured values taken from patent publication US20230365632A1, “A GROUP OF PEPTIDE DERIVATIVE OMICSYNINS WITH ANTIVIRAL ACTIVITY AND USES THEREOF” (INSTITUTE OF MEDICINAL BIOTECHNOLOGY CHINESE ACADEMY OF …, priority 2020, published 2023).
# Where two headings read alike, the source gives them in different places. *1 amine or outer side, *2 acyl side, *3 side chain or, on linkers, in order; H or OH if unused. Where a SMILES comes first, the peptide text is derived from it. [ ]: non-standard residue; d: D form. Phe(ol) = N[CH](CO)Cc1ccccc1; CO = O=C([*:1])[*:2]
# What was measured:
# coronavirus HCoV-229E = assay: CPE inhibition assay against HCoV-229E in Huh7.5 cells; assay type: cell-based; details: Table 10; TC50/IC50
# [1] = system: influenza virus A/wuhan/359/95 (H3N2); assay type: cell-based
structure (smiles),measurement,setting,value
"CC(C)C(NC(=O)C(CCCNC(=N)N)NC(=O)NC(Cc1ccccc1)C(=O)O)C(=O)NC(CO)Cc1ccccc1 (stereo not drawn) [Omicsynin A3, Chymostatinol A] ({Phe-CO}-Arg-Val-[Phe(ol)]; configuration not given here)",HCoV-229E SI,coronavirus HCoV-229E,> 2.93
same,A/Wuhan/359/1995 (H3N2) SI,[1],> 3.82
"CC(C)[C@H](NC(=O)[C@H](CCCNC(=N)N)NC(=O)N[C@@H](Cc1ccccc1)C(=O)O)C(=O)N[C@H](C=O)CCCNC(=N)N [Omicsynin B4, Antipain] ({Phe-CO}-Arg-Val-Arg-aldehyde)",HCoV-229E SI,coronavirus HCoV-229E,> 186.34
same,A/Wuhan/359/1995 (H3N2) SI,"[1]; Table 9, TC50/IC50",> 136.05
CCOC(=O)C1=C[C@@H](OC(CC)CC)[C@H](NC(C)=O)[C@@H](N)C1 [Oseltamivir Phosphate],A/Wuhan/359/1995 (H3N2) SI,"[1]; Table 5, TC50/IC50",287.3
CCOC(=O)C1=C[C@@H](OC(CC)CC)[C@H](NC(C)=O)[C@@H](N)C1 [Oseltamivir],A/wuhan/359/95(H3N2) SI,"[1]; Table 1, positive drug, TC50/IC50",773
same,A/wuhan/359/95(H3N2) SI,"[1]; Table 2, TC50/IC50",773.0
same,A/Wuhan/359/1995 (H3N2) SI,"[1]; Table 3, TC50/IC50",287.3
same,A/Wuhan/359/1995 (H3N2) SI,"[1]; Table 4, positive drug, TC50/IC50",>565.0
same,A/Wuhan/359/1995 (H3N2) SI,"[1]; Table 6, TC50/IC50",233.7
"CC(C)C[C@H](NC(=O)[C@@H](NC(=O)N[C@@H](Cc1ccccc1)C(=O)O)[C@@H]1CCN=C(N)N1)C(=O)N[C@H](C=O)Cc1ccccc1 [chymostatin, Chymostatin]",HCoV-229E SI,coronavirus HCoV-229E,> 6.93
same,A/Wuhan/359/1995 (H3N2) SI,[1],> 1.00
